A mixed list of measured activities; the numbers were collected in NIAID ChemDB.

Shared fields: cytotoxicity tests; cell line: Vero mammalian cells; read by: MTT; endpoint: CC50

Conditions beyond the fields shown may differ between rows.

COc1ccc(CC2C3=C(CCCC3)CCN2c2c(F)cc3c(=O)c(C(=O)O)cn(C4CC4)c3c2OC)cc1 ; value: 117 µM
CC(C)(C)n1cc(C(=O)O)c(=O)c2cc([N+](=O)[O-])c(N3CCn4cc(C(=O)O)nc4C3)cc21 ; value: 145.9 µM
O=C(O)c1c(=O)c2cc(F)c(N3CCC4(CC3)OCCO4)cc2n2c1sc1ccccc12 ; value: >137.5 µM
O=C(O)c1cn(C2CC2)c2cc(N3CCN(Cc4ccc5c(c4)OCO5)CC3)c(F)cc2c1=O ; value: >134.3 µM
C[C@H]1COc2c(N3CCC4(CC3)OCCO4)c(F)c(N)c3c(=O)c(C(=O)O)cn1c23 ; value: >149 µM
O=C(O)c1c(=O)c2cc(F)c(N3CCC(O)(c4ccc(Cl)cc4)CC3)cc2n2c1sc1ccccc12 ; value: 119.5 µM
COc1c(N2CCn3cc(C(=O)O)nc3C2)c(F)c([N+](=O)[O-])c2c(=O)c(C(=O)O)cn(C3CC3)c12 ; value: 128 µM
CN1CCN(c2cc3c(cc2F)c(=O)c(C(=O)O)cn3C2CC2)CC1c1ccccc1 ; value: >148.3 µM
COc1ccc(CC2C3=C(CCCC3)CCN2c2c(F)c(N)c3c(=O)c(C(=O)O)cn(C4CC4)c3c2OC)cc1 ; value: 114 µM
COC1CCN(c2cc3c(cc2[N+](=O)[O-])c(=O)c(C(=O)O)cn3C2CC2)CC1OC ; value: >117.5 µM
C[C@H]1COc2c(N3CCC(n4c(=O)[nH]c5cc(Cl)ccc54)CC3)c(F)c([N+](=O)[O-])c3c(=O)c(C(=O)O)cn1c23 ; value: 112 µM
COc1c(N2CCC3(CC2)OCCO3)c(F)cc2c(=O)c(C(=O)O)cn(C3CC3)c12 ; value: 149 µM
CC1COc2c(N3CCN(C(=O)C4COc5ccccc5O4)CC3)c(F)c([N+](=O)[O-])c3c(=O)c(C(=O)O)cn1c23 ; value: 113 µM
CCN(CC)C(=O)C1CCCN(c2cc3c(cc2[N+](=O)[O-])c(=O)c(C(=O)O)cn3-c2ccc(F)cc2F)C1 ; value: 62.38 µM
CC(C)(C)NC(=O)C1c2ccccc2CCN1c1cc2c(cc1F)c(=O)c(C(=O)O)c1sc3ccccc3n12 ; value: 115 µM
CCN(CC)C(=O)C1CCCN(c2cc3c(cc2[N+](=O)[O-])c(=O)c(C(=O)O)cn3C2CC2)C1 ; value: >146 µM
COc1c(N2CC(C)OC(C)C2)c(F)cc2c(=O)c(C(=O)O)cn(C3CC3)c12 ; value: 160 µM
O=C(O)c1c(=O)c2cc([N+](=O)[O-])c(N3CCC(O)(c4ccc(Cl)cc4)CC3)cc2n2c1sc1ccccc12 ; value: 113.6 µM
CC1COc2c(N3CCN(C(c4ccccc4)c4ccc(Cl)cc4)CC3)c(F)c([N+](=O)[O-])c3c(=O)c(C(=O)O)cn1c23 ; value: 105 µM
COc1c(N2CCN(C(c3ccccc3)c3ccc(Cl)cc3)CC2)c(F)c([N+](=O)[O-])c2c(=O)c(C(=O)O)cn(C3CC3)c12 ; value: 103 µM
O=C(O)c1cn2c(n1)CN(c1cc3c(cc1F)c(=O)c(C(=O)O)c1sc4ccccc4n13)CC2 ; value: >130.6 µM
COc1c(N2CCN(Cc3ccc4c(c3)OCO4)CC2)c(F)c([N+](=O)[O-])c2c(=O)c(C(=O)O)cn(C3CC3)c12 ; value: 116 µM
CC1COc2c(N3CCC4(CC3)OCCO4)c(F)c([N+](=O)[O-])c3c(=O)c(C(=O)O)cn1c23 ; value: 139 µM
COc1cc2c(cc1OC)CN(c1cc3c(cc1F)c(=O)c(C(=O)O)c1sc4ccccc4n13)CC2 ; value: >123.9 µM

A second listing of 2 rows from above:

smiles	value
CC1COc2c(N3CCC4(CC3)OCCO4)c(F)c([N+](=O)[O-])c3c(=O)c(C(=O)O)cn1c23	139 µM
CCN(CC)C(=O)C1CCCN(c2cc3c(cc2[N+](=O)[O-])c(=O)c(C(=O)O)cn3C2CC2)C1	>146 µM

CCn is the concentration with n% toxicity to the cells.